Laboratory results reported in patent publication US20230381142A1, “ANTILEISHMANIAL COMPOUNDS, COMPOSITIONS AND USE THEREOF” (TRUSTEES OF BOSTON UNIVERSITY, priority 2022, published 2023).

Test system: L. donovani intracellular amastigotes infecting THP-1 macrophages
Assay: GSK intramacrophage L. donovani assay (LD AMMAC, inMac; Assay Conditions C)
Assay type: cell-based, Leishmania donovani
Settings: (LD MAC EC50)/(LD AMMAC EC50)
In short: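 EC50 values come from counting amastigotes per infected THP-1 macrophage (AMMAC). Parallel read-outs give percentage of infected cells per well (INFCELL) and a macrophage-number toxicity EC50 (MAC).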

Row | SMILES | SI MAC
1 | C=C(C)CCCc1n[nH]c2c1C(c1ccc(F)cc1)N(c1ccc(OC)cc1)C2=O (stereo not drawn) [Compound 14] | 3.2
2 | CC(C)Cc1n[nH]c2c1C(c1ccc(F)cc1)N(c1ccccn1)C2=O (stereo not drawn) [Compound 33] | >2.5
3 | COc1ccc(N2C(=O)c3[nH]nc(CC(C)C)c3C2c2cncc(OC)c2)cc1 (stereo not drawn) [Compound S11] | 2.0
4 | COc1ccc(N2C(=O)c3[nH]nc(CC(C)C)c3C2c2ccc(F)cc2)cc1F (stereo not drawn) [Compound 42, 5-(3-fluoro-4-methoxyphenyl)-4-(4-fluorophenyl)-3-isobutyl-4,5-dihydropyrrolo[3,4-c]pyrazol-6(2H)-one] | 19.3

Same assay, conditions: THP-1 CC50 / L. donovani EC50 (THP-1)

Row | SMILES | SI Host cell potency/L. donovani potency
5 | COc1ncc(N2C(=O)c3[nH]nc(CC(C)C)c3C2c2ccc(F)cc2)cc1C (stereo not drawn) [CMLD011555] | 2.0
6 | CC(C)Cc1n[nH]c2c1C(c1c(Cl)cccc1Cl)N(c1ccc(N(C)C)cc1)C2=O (stereo not drawn) [CMLD011553] | 5.0
7 | CC(C)Cc1n[nH]c2c1C(c1ccccc1Br)N(c1ccc3c(c1)OCC(=O)N3)C2=O (stereo not drawn) [CMLD011497] | 10.0
8 | CC(C)Cc1n[nH]c2c1C(c1ccsc1)N(c1ccc3c(c1)OCO3)C2=O (stereo not drawn) [CMLD011136] | 10.0

Same assay, conditions: rows whose L. donovani EC50 is in THP-1 cells (c)

Row | SMILES | SI Host cell potency/L. donovani potency
9 | COc1ccc(N2C(=O)c3[nH]nc(CC(C)C)c3C2c2cncs2)cc1 (stereo not drawn) [CMLD010991] | >3.1
10 | CC(C)Cc1n[nH]c2c1C(c1ccc(F)cc1)N(c1cccc(C#N)c1)C2=O (stereo not drawn) [BUCMD00806] | >2.0
11 | COc1ccc(N2C(=O)c3[nH]nc(CC(C)C)c3C2c2cncc(OC)c2)cc1 (stereo not drawn) [CMLD010886] | 2.0
12 | COc1ccc(N2C(=O)c3[nH]nc(CC(C)C)c3C2c2ccc(F)cc2)c(OC)c1 (stereo not drawn) [CMLD010992] | 1.6
13 | COc1ccc(N2C(=O)c3[nH]nc(-c4ccc5c(c4)CCC5)c3C2c2ccc(F)cc2)cc1 (stereo not drawn) [CMLD010980] | 1.6
14 | C=C(C)CCc1n[nH]c2c1C(c1ccc(F)cc1)N(c1ccc(OC)cc1)C2=O (stereo not drawn) [CMLD011025] | 3.2
15 | COc1cccc(N2C(=O)c3[nH]nc(CC(C)C)c3C2c2cccc(Cl)c2)c1 (stereo not drawn) [CMLD011133] | 5.0
16 | CC(C)Cc1n[nH]c2c1C(c1c(Cl)cccc1Cl)N(c1ccc3c(c1)OCO3)C2=O (stereo not drawn) [CMLD011547] | 7.9
17 | COc1ccccc1N1C(=O)c2[nH]nc(CC(C)C)c2C1c1ccsc1 (stereo not drawn) [CMLD011138] | 2.0
18 | CC(C)Cc1n[nH]c2c1C(c1c(Cl)cccc1Cl)N(c1ccc(Br)cc1)C2=O (stereo not drawn) [CMLD011550] | 2.5
19 | CC(C)Cc1n[nH]c2c1C(c1ccc(F)cc1)N(C(CO)CO)C2=O (stereo not drawn) [BUCMD00817] | 1.0
20 | COC(=O)c1ccc(N2C(=O)c3[nH]nc(CC(C)C)c3C2c2ccc(F)cc2)cc1 (stereo not drawn) [CMLD011033] | 20.0
21 | CC(C)Cc1n[nH]c2c1C(c1ccc(F)cc1)N(c1ccccn1)C2=O (stereo not drawn) [CMLD011095] | >2.5
22 | CC(C)Cc1n[nH]c2c1C(c1ccc(F)cc1)N(c1ccc(O)cc1)C2=O (stereo not drawn) [CMLD011029] | 8.0
23 | COc1ccc(N2C(=O)c3[nH]nc(CC(C)C)c3C2c2ccc(Br)cc2)cc1 (stereo not drawn) [CMLD010889] | 2.5
24 | CC(C)Cc1n[nH]c2c1C(c1ccc(F)cc1)N(CCN1CCCC1)C2=O (stereo not drawn) [CMLD011072] | >3.2
25 | COc1ccc(N2C(=O)c3[nH]nc(CC(C)C)c3C2c2ccc(F)cc2)cc1F (stereo not drawn) [CMLD010884] | 19.3
26 | CC(C)Cc1n[nH]c2c1C(c1ccc(F)cc1)N(c1ccc3[nH]c(O)nc3c1)C2=O (stereo not drawn) [CMLD011556] | <1
27 | COc1ccc(N2C(=O)c3[nH]nc(CC(C)C)c3[C@@H]2c2ccccc2Br)cn1 [CMLD010976] | 20.0
28 | COc1ccc(N2C(=O)c3[nH]nc(CC(C)C)c3C2c2ccsc2)cc1 (stereo not drawn) [CMLD011104] | >7.9

Test system: L. donovani intracellular amastigotes in B10R cells
Assay: UCSD L. donovani infection assay (Assay Conditions D)
Assay type: cell-based
Settings: UCSD assay, CC50 versus L. donovani infection EC50
Description: (§1) Assay Conditions D: B10R cells (CVCL_0155) were seeded at 300 cells/well, and L. donovani WT promastigotes in stationary phase (7th day after passage) were added at 6,000 parasites/well (ratio of 20 parasites/cell). Both cells and parasites were seeded in DMEM High-Glucose medium (Gibco, cat. no. 11995065) containing 5% Fetal Bovine Serum (Sigma-Aldrich, cat. no. F2442) and 1% Penicillin-Streptomycin (Gibco, cat. no. 15140122). Cells and parasites were incubated in the presence of the compounds for 72 h at 37° C. and 5% C02. Plates were then fixed with 4% formaldehyde solution for at least 1 h, then washed with 1×PBS and stained with 5 μg/mL DAPI. Plates were read using an ImageXpress microscope (Molecular Devices) and analyzed by MetaXpress software (Molecular Devices) using a custom module optimized for this assay. […] Compounds were tested in a 10-point 2-fold serial dilution in 3 technical replicates, and 2 biological replicates. After 72 h, plates were fixed and stained with DAPI as described above. Images were acquired on an ImageXpress microscope, and analyzed using the MetaXpress custom module.
as §1, with “Compounds were obtained as 0.2 μmoles of dried film for primary single point screening. Each compound was diluted in DMSO to 10 μM final testing concentration. These compounds were tested in 2 biological replicates. The compounds were pre-spotted onto 384-well assay plates in single concentration.” for “Assay Conditions D:”, “CO2.” for “C02.”, “module. The DRCs were plotted, half-effective concentration (EC50) and half-cytotoxic concentration (CC50) were calculated using GraphPad Prism Software, version 6.05 (GraphPad Software, San Diego, CA).” for “module.”

Row | SMILES | SI
29 | COc1ccccc1C1c2c(CC(C)C)n[nH]c2C(=O)N1c1ccc(N(C)C)cc1 (stereo not drawn) [Compound 80, 5-(4-(dimethylamino)phenyl)-3-isobutyl-4-(2-methoxyphenyl)-4,5-dihydropyrrolo[3,4-c]pyrazol-6(1H)-one] | 49.3
30 | Cc1cc(F)ccc1C1c2c(CC(C)C)n[nH]c2C(=O)N1c1ccc2c(c1)OCO2 (stereo not drawn) [Compound 70, 5-(benzo[d][1,3]dioxol-5-yl)-4-(4-fluoro-2-methylphenyl)-3-isobutyl-4,5-dihydropyrrolo[3,4-c]pyrazol-6(1H)-one] | 120.8
31 | COc1ccccc1C1c2c(CC(C)C)n[nH]c2C(=O)N1c1ccc(Br)cc1 (stereo not drawn) [Compound 75, 5-(4-bromophenyl)-3-isobutyl-4-(2-methoxyphenyl)-4,5-dihydropyrrolo[3,4-c]pyrazol-6(1H)-one] | 4.8
32 | COc1ccc(N2C(=O)c3[nH]nc(CC(C)C)c3C2c2ccccc2OC)cn1 (stereo not drawn) [Compound 85, 3-isobutyl-4-(2-methoxyphenyl)-5-(6-methoxypyridin-3-yl)-4,5-dihydropyrrolo[3,4-c]pyrazol-6(1H)-one] | >76.9
33 | COc1ccc(N2C(=O)c3[nH]nc(CC(C)C)c3C2c2ccc(F)cc2C)cc1F (stereo not drawn) [Compound 73, 4-(4-fluoro-2-methylphenyl)-5-(3-fluoro-4-methoxyphenyl)-3-isobutyl-4,5-dihydropyrrolo[3,4-c]pyrazol-6(1H)-one] | 68.1
34 | CC(C)Cc1n[nH]c2c1C(c1ccccc1Br)N(c1ccc(Br)cc1)C2=O (stereo not drawn) [Compound 74, 4-(2-bromophenyl)-5-(4-bromophenyl)-3-isobutyl-4,5-dihydropyrrolo[3,4-c]pyrazol-6(1H)-one] | 12.8
35 | CC(C)Cc1n[nH]c2c1C(c1ccccc1Cl)N(c1ccc(N(C)C)cc1)C2=O (stereo not drawn) [Compound 78, 4-(2-chlorophenyl)-5-(4-(dimethylamino)phenyl)-3-isobutyl-4,5-dihydropyrrolo[3,4-c]pyrazol-6(1H)-one] | 28.2
36 | COc1ccc(N2C(=O)c3[nH]nc(CC(C)C)c3C2c2ccccc2OC)cc1F (stereo not drawn) [Compound 72, 5-(3-fluoro-4-methoxyphenyl)-3-isobutyl-4-(2-methoxyphenyl)-4,5-dihydropyrrolo[3,4-c]pyrazol-6(1H)-one] | 0.7

Same assay, conditions: rows whose L. donovani potency is in B10R cells (d)

Row | SMILES | SI Host cell potency/L. donovani potency
37 | COc1ccccc1C1c2c(CC(C)C)n[nH]c2C(=O)N1c1ccc(N(C)C)cc1 (stereo not drawn) [CMLD011552] | 49.3
38 | COc1ccc(N2C(=O)c3[nH]nc(CC(C)C)c3C2c2ccccc2OC)cc1F (stereo not drawn) [CMLD011566] | 0.7
39 | Cc1cc(F)ccc1C1c2c(CC(C)C)n[nH]c2C(=O)N1c1ccc2c(c1)OCO2 (stereo not drawn) [CMLD011564] | 120.8
40 | Cc1cc(F)ccc1C1c2c(CC(C)C)n[nH]c2C(=O)N1c1ccc2ncnn2c1 (stereo not drawn) [CMLD010948] | >24.4
41 | COc1ccccc1C1c2c(CC(C)C)n[nH]c2C(=O)N1c1ccc2c(c1)OCO2 (stereo not drawn) [CMLD011546] | >74.1
42 | COc1ccc(N2C(=O)c3[nH]nc(CC(C)C)c3C2c2ccccc2OC)cn1 (stereo not drawn) [CMLD011567] | >76.9
43 | COc1ccc(N2C(=O)c3[nH]nc(CC(C)C)c3C2c2ccc(F)cc2C)cc1F (stereo not drawn) [CMLD011562] | 68.1
44 | COc1cc(F)ccc1C1c2c(CC(C)C)n[nH]c2C(=O)N1c1ccc(N(C)C)cc1 (stereo not drawn) [CMLD011572] | 212.5
45 | COc1ccc(N2C(=O)c3[nH]nc(CC(C)C)c3C2c2ccc(F)cc2OC)cn1 (stereo not drawn) [CMLD011574] | >23.0
46 | COc1ccccc1C1c2c(CC(C)C)n[nH]c2C(=O)N1c1ccc(Br)cc1 (stereo not drawn) [CMLD011549] | 4.8
47 | Cc1cc(F)ccc1C1c2c(CC(C)C)n[nH]c2C(=O)N1c1ccc(Br)cc1 (stereo not drawn) [CMLD011565] | 25.3
48 | Cc1cc(F)ccc1C1c2c(CC(C)C)n[nH]c2C(=O)N1c1ccc(N(C)C)cc1 (stereo not drawn) [CMLD011561] | 68.3
